In US20140287433A1:

Molecular target: VAMPtide (o-Abz/Dnp) (List Biological Laboratories, Inc.)
Experiment: cell-based or functional assay

“purified 150 kDa BoNT/B from C. botulinum strain Okra B (Metabiologics Inc.)” gave a VAMPtide cleavage, Vmax s^-1 (t = 15-60 min), 1 nM toxin, buffer +TCEP of 0.027 Vmax s^-1, a VAMPtide cleavage, Vmax s^-1 (t = 15-60 min), 2 nM toxin, buffer +TCEP of 0.016 Vmax s^-1 and a VAMPtide cleavage, Vmax s^-1 (t = 15-60 min), 2 nM toxin, buffer +TCEP+Tween of 0.021 Vmax s^-1. It also gave a VAMPtide cleavage, Vmax s^-1 (t = 15-60 min), 5 nM toxin, buffer +TCEP of 0.045 Vmax s^-1, a VAMPtide cleavage, Vmax s^-1 (t = 15-60 min), 5 nM toxin, buffer +TCEP+Tween of 0.045 Vmax s^-1 and a VAMPtide cleavage, Vmax s^-1 (t = 15-60 min), 10 nM toxin, buffer +DTT+Tween of 0.044 Vmax s^-1. The VAMPtide cleavage, Vmax s^-1 (t = 15-60 min), 10 nM toxin, buffer +TCEP was 0.079 Vmax s^-1, the VAMPtide cleavage, Vmax s^-1 (t = 15-60 min), 10 nM toxin, buffer +TCEP+Tween was 0.076 Vmax s^-1 and the VAMPtide cleavage, Vmax s^-1 (t = 15-60 min), 20 nM toxin, buffer +DTT+Tween was 0.055 Vmax s^-1. For the same substance, the VAMPtide cleavage, Vmax s^-1 (t = 15-60 min), 20 nM toxin, buffer +TCEP was 0.126 Vmax s^-1 and the VAMPtide cleavage, Vmax s^-1 (t = 15-60 min), 20 nM toxin, buffer +TCEP+Tween was 0.111 Vmax s^-1.
